Laboratory results published in paper PMC5861052, “Uptake and accumulation of Microcystin-LR based on exposure through drinking water: An animal model assessing the human health risk” (Scientific Reports, 2018).

Test: Screening for depuration product MC-LR-GSH in porcine liver and kidney, experiment 2
Settings: pig, based on raw peak area of the quantifying ion Q, qualitative

Q: Which “MC-LR-GSH level in liver compared with kidney” value does the source give for Microcystin-LR-Glutathione here?
A: Its value is “higher”.
